Tags and fusion partners may be left off the protein sequences shown.
Target: T1, HilD (UniProt E1WAC0)
T1 sequence (looked up): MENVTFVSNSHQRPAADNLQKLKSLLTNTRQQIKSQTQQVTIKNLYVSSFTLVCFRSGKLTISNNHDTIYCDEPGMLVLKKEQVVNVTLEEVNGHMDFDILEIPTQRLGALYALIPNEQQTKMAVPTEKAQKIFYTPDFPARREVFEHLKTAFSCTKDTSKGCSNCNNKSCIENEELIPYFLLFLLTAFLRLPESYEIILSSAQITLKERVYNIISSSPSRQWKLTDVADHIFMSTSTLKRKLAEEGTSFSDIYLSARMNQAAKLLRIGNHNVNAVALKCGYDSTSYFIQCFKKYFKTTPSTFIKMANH
Assay: EMSA
Details: no fisetin, 2.5 ug HilD, 50 ng DNA in 20 uL; 20 mM HEPES pH 7.2, 20 mM KCl, 1 mM DTT, 0.04 mM EDTA, 0.01% Triton X-100, 1% glycerol, RT, 30 min ([…]; recombinant protein; residues 1-309; protein details: His6 (pET28a); label: none (SYBR Safe stain)

TGCAATGAGGCCAAGTTAAATATGTAAATATTTAGATGCCCGGCGCTGACTCTCTCTGCACCAGGATATACGGCAGCGTCCATTCGATAATCACAGTTAGTTATAACAATATTATTACCAACATGTCAGTTATTTAAAGCACAGGCATAAGCTAAATAATCAAATGTTAAAAACATATAAACCCGAGCCCGTAGAATATGACATTAAGCTCATAATAAAAGCTCAACCTGACCGTTAGTACTAACAGCAGAATTACTGAAACAGTAGATTCTATCCTAACGACTTGTATTAGTTATTATAACTTTTCACCCTGTAAGAGAATACACTATTATCATGCCACATT (double strand) [hilA promoter]
binding result: binds

Reference: PMC10783070
